Results of unrelated studies side by side (data: NIAID ChemDB).

Rows are shuffled and stem from different studies. ECn: concentration that inhibits the pathogen or its effect by n%. Percent inhibition refers to the dose given; in toxicity tests it is the harm to the cells. Fold resistance: result on the changed form divided by that on wild type. MIC50, MIC90 and the like: level of inhibition, or share of isolates inhibited. ICn: concentration for n% inhibition.

C[C@H](Cc1ccc(O)c(O)c1)[C@@H](C)Cc1ccc(O)c(O)c1 ; kind: culture ; strain: CCC 131-1997 ; method: broth dilution ; measure: MIC100 ; agent: Candida tropicalis ; result: 62.5 µg/mL
O=C(Nc1nnc(NCc2cccc3ccccc23)s1)c1ccc2c(c1)C(=O)OC2=O ; target: Polymerase ; kind: target ; measure: IC50 ; agent: Human cytomegalovirus ; result: <25 µM
CCO/N=C/c1ccc(OCCC2CCN(c3ccc(C)nn3)CC2)cc1 ; kind: culture ; strain: 5986 (ICAM-1 receptor group 18) ; cell line: KB ; method: neutral red ; measure: EC50 ; agent: Rhinovirus ; result: 0.652 µM
O=C(Nc1nnc(NCc2cccnc2)s1)c1ccc(Cl)c(Cl)c1 ; target: Polymerase ; kind: target ; measure: IC50 ; agent: Human cytomegalovirus ; result: >25 µM
CCN(C(=O)OCc1ccccc1)C1CCN(CC[C@](C)(CN(C)S(=O)(=O)c2ccccc2)c2ccccc2)CC1 ; target: CCR5 ; kind: target ; method: radiometric ; measure: IC50 ; changes: CCR5-D276A ; result: 0.023 µM
CCCCCCCC/C=C/CCCCCCCC(=O)Nc1nnc(NCc2ccc(F)cc2)s1 ; target: Polymerase ; kind: target ; measure: IC50 ; agent: Human cytomegalovirus ; result: <25 µM
O=C(C1CCCCC1)N1C[C@H](CN2CCC(c3ccccc3)CC2)[C@@H](c2ccccc2)C1 ; target: CCR5 ; kind: target ; method: radiometric ; measure: IC50 ; result: 0.023 µM
CC(C)=CCN1Cc2cc(Cl)cc3[nH]c(=S)n(c23)C[C@@H]1C ; kind: culture ; cell line: MT-4 ; measure: EC95 ; changes: RT-K70R K103N ; agent: HIV-1 ; result: >3 µM
COc1ccccc1C(=O)Nc1nnc(NCc2ccc(Cl)c(Cl)c2)s1 ; target: Polymerase ; kind: target ; measure: IC50 ; agent: Human cytomegalovirus ; result: >25 µM
O=C(c1ccccc1Cl)N1C[C@H](CN2CCC(O)(CCCc3ccc(-c4nn[nH]n4)cc3)CC2)[C@@H](c2ccccc2)C1 ; target: CCR5 ; kind: target ; method: radiometric ; measure: IC50 ; changes: CCR5-E283A ; result: >10 µM
Cc1cn([C@H]2C=C[C@@H](COP(=O)(O)OP(=O)(O)OP(=O)(O)O)O2)c(=O)[nH]c1=O ; target: Reverse transcriptase ; kind: target ; method: nucleotide incorporation / radiometric ; measure: IC50 ; changes: RT-N137T ; agent: HIV ; result: 1.7 µM
C#CC[C@@H](C(=O)N[C@H](/C=C/C(=O)OCC)C[C@@H]1CCNC1=O)n1cccc(NC(=O)c2cc(C)on2)c1=O ; kind: culture ; strain: Clinical isolate 15 (serotype 23) ; cell line: H1-HELA ; method: cytopathic effect / XTT ; dose: 0.141 µM ; measure: inhibition ; agent: Rhinovirus ; result: 90%
CC(C)=CCOc1cc(NC(=S)c2ccoc2C)ccc1Cl ; target: Reverse transcriptase ; kind: target ; method: nucleotide incorporation / radiometric ; measure: fold resistance ; changes: RT-N137K ; agent: HIV ; result: 0.36
CO[C@@H]1[C@H](OC(=O)NC(=O)CCl)CC[C@]2(CO2)[C@H]1[C@@]1(C)O[C@@H]1CC=C(C)C ; kind: culture ; cell line: RK-13 ; dose: 0.0005 µg/mL ; measure: inhibition ; agent: Encephalitozoon intestinalis ; result: 71.2%
O=C(/C=C/c1ccccc1Cl)Nc1nnc(NCCCn2ccnc2)s1 ; target: Polymerase ; kind: target ; measure: IC50 ; agent: Human cytomegalovirus ; result: >25 µM
Cc1cn([C@@H]2O[C@H](CO[Si](C)(C)C(C)(C)C)C3(OS(=O)(=O)C=C3N)[C@H]2O[Si](C)(C)C(C)(C)C)c(=O)n(C)c1=O ; target: Reverse transcriptase ; kind: target ; method: nucleotide incorporation / radiometric ; measure: IC50 ; changes: RT-N137K ; agent: HIV ; result: 3.3 µM